Anti-infective test results gathered from many reports (values: NIAID ChemDB through PubChem).

All rows: growth or infection tests; agent: HIV-1; method: luminescence; read-out: EC50

Lines come from different laboratories, so protocols vary. ECn: concentration that inhibits the pathogen or its effect by n%. Blank or dashed fields: not listed here.

| smiles | setting | strain | changes | cells | result |
|---|---|---|---|---|---|
| COc1ccc(-n2nc(-c3ccc(C)[nH]c3=O)cc2-c2ccccc2)cc1 | - | UG070 | - | TZM-bl | 99.97 µM |
| Cc1ncc(-c2ccc(OCCc3ccc(F)cc3)cn2)c(N2CCC3(CCCCC3)C2)c1[C@H](OC(C)(C)C)C(=O)O | - | NL4-3 | - | MT-2 | 3.8 µM |
| Cc1nc2ccccc2c(-c2cc(F)c3c(c2C)CCCO3)c1[C@H](OC(C)(C)C)C(=O)O | - | NL4-3 | V126I | MT-4 | 0.019 µM |
| C#C[C@]1(COCOC(=O)OCCCCCCCCCC)O[C@@H](n2cnc3c(N)nc(F)nc32)C[C@@H]1O | - | NL4-3 | gp160 M184V | U373-CD4-CXCR4 | 0.0111 µM |
| Cc1cn(C2CC(n3nnc(C4CC4)c3C3(C(F)(F)F)OC(=O)Nc4ccc(Cl)cc43)C(CO)O2)c(=O)[nH]c1=O | - | VB59 | - | TZM-bl | 6.33 µg/mL |
| Cc1ncc(-c2ccc(OCCOC(C)(C)C)cn2)c(N2CCC3CCCCC3C2)c1[C@H](OC(C)(C)C)C(=O)O | - | NL4-3 | - | MT-2 | 4.9 µM |
| Cc1cn([C@H]2C[C@H](N=[N+]=[N-])[C@@H](CO)O2)c(=O)[nH]c1=O | - | UG070 | - | TZM-bl | 0.027 µM |
| Brc1cccc(N=Cc2cc3ccccc3nc2Nc2cccc(Br)c2)c1 | - | UG070 | - | TZM-bl | >100 µM |
| Cc1ccc(-n2nc(-c3ccc(C)[nH]c3=O)cc2-c2ccccc2)c(C)c1 | - | VB59 | - | TZM-bl | >56.34 µM |
| Cc1ncc(-c2ccc(OC3Cc4ccccc4C3)cn2)c(N2CCC(C)(C)CC2)c1[C@H](OC(C)(C)C)C(=O)O | - | NL4-3 | - | MT-2 | 0.0024 µM |
| Clc1cc(/C=C/c2ccc(OCc3ccccc3)cc2)nc2ccccc12 | - | VB59 | - | TZM-bl | 76.64 µM |
| Cc1ncc(-c2ccc(OCCn3nc(C(F)F)c4c3C(F)(F)[C@H]3C[C@@H]43)cn2)c(N2CCC(C)(C)CC2)c1[C@H](OC(C)(C)C)C(=O)O | - | NL4-3 | - | MT-2 | 0.0035 µM |
| O=C1CN(C(=O)c2cc(-c3cc(Br)cc(OC(F)(F)F)c3)n(-c3ccncc3)n2)CN1 | - | NL4-3 | K103N/Y181C | MT-4 | 0.031 µM |
| Cc1ccc(-c2ccc(NC(=O)N3CCC4(CCO4)CC3)cc2)cc1 | pseudotyped | CNE55 | - | TZM-bl | >30 µM |
| Cc1ccc(-c2cc(-c3ccccc3)n(-c3ccc(Cl)cc3)n2)c(=O)[nH]1 | - | UG070 | - | TZM-bl | 213 µM |
| COc1cccc2ccc(-c3nnc(-c4ccccc4)o3)nc12 | - | VB59 | - | TZM-bl | >300 µM |
| C#C[C@]1(CO)O[C@@H](n2cnc3c(NC(=O)CCCCCCCCC)nc(F)nc32)C[C@@H]1O | - | NL4-3 | gp160 M184V | U373-CD4-CXCR4 | 0.0061 µM |
| COc1cccc2ccc(/C=C/C(=O)Nc3ccc(C)cc3)nc12 | - | UG070 | - | TZM-bl | 155 µM |
| Cc1cc(C(O)CNC(C)CCn2cnc3c2c(=O)n(C)c(=O)n3C)ccc1O | - | NL4-3 | - | SupT1 | 9.64 µM |
| COc1ccccc1-c1nnc(-c2ccc3cccc(OC)c3n2)o1 | - | VB59 | - | TZM-bl | >600 µM |
| CC1(C)CC=C(c2cn(-c3nccc(C(=O)NC4CCC(N5CC6CCC(C5)O6)CC4)n3)c3ccc(F)c([C@H](OC(C)(C)C)C(=O)O)c23)CC1 | - | NL4-3 | T174I | MT-4 | >2.228 µM |
| COc1ccc(N=Cc2cc3ccccc3nc2Nc2ccc(OC)cc2)cc1 | - | UG070 | - | TZM-bl | >130 µM |
| CCCCCCCCCCCCCCCCCCOCCOP(=O)(CO[C@H](C)Cn1cnc2c(N)ncnc21)OCc1ccccc1C | - | - | - | PBMC | 0.0027 µM |
| CCC1(C)CCN(c2c(-c3ccc(OCCc4cn(C)nc4C)cn3)cnc(C)c2[C@H](OC(C)(C)C)C(=O)O)CC1 | - | NL4-3 | - | MT-2 | 4.4 µM |
| Cc1ncc(-c2ccc(N(C)CCOc3ccc(F)cc3C#N)cn2)c(N2CCC(C)(C)CC2)c1[C@H](OC(C)(C)C)C(=O)O | - | NL4-3 | - | MT-2 | 0.0126 µM |
| Clc1cc(/C=C/c2ccc(-c3cncnc3)cc2)nc2ccccc12 | - | UG070 | - | TZM-bl | 89.3 µM |
| CCCCSc1ccc(-c2cnc(C)c([C@H](OC(C)(C)C)C(=O)O)c2N2CCC(C)(C)CC2)nc1 | - | NL4-3 | - | MT-2 | 0.0068 µM |
| O=C(c1cc(-c2cc(F)cc(OC(F)(F)F)c2)n(-c2ccnc(Cl)c2)n1)N1CCSC1 | - | NL4-3 | K103N/Y181C | MT-4 | 3.3 µM |
| Clc1ccc(N=Cc2cc3ccccc3nc2Nc2ccc(Cl)cc2)cc1 | - | UG070 | - | TZM-bl | >100 µM |
| Cc1ncc(-c2ccc(OCCOC3CCCC3)cn2)c(N2CCC3(CCCC3)CC2)c1[C@H](OC(C)(C)C)C(=O)O | - | NL4-3 | - | MT-2 | 2.3 µM |
| Cc1ccc(OCCN(C)c2ccc(-c3cnc(C)c([C@H](OC(C)(C)C)C(=O)O)c3N3CCC(C)(C)CC3)nc2)c(C)c1 | - | NL4-3 | - | MT-2 | 0.0025 µM |
| COc1ccc(/C=C/c2cc(Cl)c3ccccc3n2)c(OC)c1 | - | VB59 | - | TZM-bl | 3.99 µM |
| Cc1ncc(-c2ccc(OCC(C)C)cn2)c(N2CCC(C)(C(C)C)CC2)c1[C@H](OC(C)(C)C)C(=O)O | - | NL4-3 | - | MT-2 | 43.1 µM |
| COc1ccc(/C=C/c2cc(Cl)c3cc(Cl)ccc3n2)c(OC)c1 | - | VB59 | - | TZM-bl | 0.58 µM |
| CCCN(C)Cc1ccc2c(c1)C[C@H](CN=C(N)N)[C@H]2NC(=O)C(=O)Nc1ccc(Cl)c(F)c1 | - | JR-FL | - | Cf2Th-CD4/CCR5 | 8 µM |
| CCCCOc1ccc(-c2cnc(C)c([C@H](OC(C)(C)C)C(=O)O)c2N2CCC3CCCCC3C2)nc1 | - | NL4-3 | - | MT-2 | 31.8 µM |
| C#C[C@]1(CO)O[C@@H](n2cnc3c(NC(=O)OCC)nc(F)nc32)C[C@H]1OC(=O)OCC | - | NL4-3 | gp160 M184V | U373-CD4-CXCR4 | 15 µM |
| CCC1(C)CCN(c2c(-c3ccc(OCC4CCC4)cn3)cnc(C)c2[C@H](OC(C)(C)C)C(=O)O)CC1 | - | NL4-3 | - | MT-2 | 4.4 µM |
| COc1cc(Br)ccc1/C=C/c1cc(Cl)c2cc(Cl)ccc2n1 | - | VB59 | - | TZM-bl | 8.31 µM |
| C[C@@H]1CCO[C@H]2Cn3cc(C(=O)NCc4ccc(F)cc4F)c(=O)c(O)c3C(=O)N12 | - | HXB2 | - | MT-4 | 0.0019 µM |
| Cc1cc(C)cc(-n2nc(-c3ccc(C)[nH]c3=O)cc2-c2ccccc2)c1 | - | VB59 | - | TZM-bl | >563 µM |
| CCC1(C)CCN(c2c(-c3ccc(OCC4CCOCC4)cn3)cnc(C)c2[C@H](OC(C)(C)C)C(=O)O)CC1 | - | NL4-3 | - | MT-2 | 2 µM |
| Cc1ncc(-c2ccc(N(C)CCOc3ccc(F)cc3Cl)cn2)c(N2CCC(C)(C)CC2)c1[C@H](OC(C)(C)C)C(=O)O | - | NL4-3 | - | MT-2 | 0.0013 µM |
| COc1cccc2ccc(-c3nnc(-c4ccc(N(C)C)cc4)o3)nc12 | - | VB59 | - | TZM-bl | 75.2 µM |
| C#C[C@]1(CO)O[C@@H](n2cnc3c(N)nc(F)nc32)C[C@@H]1OC(=O)OCCCCCCCCCCCCCCCCCCC | - | NL4-3 | gp160 M184V | U373-CD4-CXCR4 | 19.36 µM |
| Cc1cccc(C)c1OCCNc1ccc(-c2cnc(C)c([C@H](OC(C)(C)C)C(=O)O)c2N2CCC(C)(C)CC2)nc1 | - | NL4-3 | - | MT-2 | 0.002 µM |
| COc1cccc2ccc(-c3nnc(-c4cccc(C)c4)o3)nc12 | - | VB59 | - | TZM-bl | 36.93 µM |
| Cc1ccc(OCCN(C)c2ccc(-c3cnc(C)c([C@H](OC(C)(C)C)C(=O)O)c3N3CCC(C)(C)CC3)cn2)c(C)c1 | - | NL4-3 | - | MT-2 | 0.004 µM |
| CN(CC(=O)O)Cc1ccc2c(c1)C[C@H](CN=C(N)N)[C@H]2NC(=O)C(=O)Nc1ccc(Cl)c(F)c1 | - | YU2 | - | Cf2Th-CD4/CCR5 | 5.2 µM |
| O=C(NCCCN1CCN(CCCNC(=O)Nc2ccc(Cl)cc2)CC1)Nc1ccc(Cl)cc1 | - | NL4-3 | - | H9 | 3.54 µM |
| Cc1ncc(-c2cnc(OCCC(F)(F)F)c(F)c2)c(N2CCC(C)(C)CC2)c1[C@H](OC(C)(C)C)C(=O)O | - | NL4-3 | - | MT-2 | 0.0054 µM |

A second listing of 3 rows from above:

smiles | setting | strain | changes | cells | result
COc1cc(Br)ccc1/C=C/c1cc(Cl)c2cc(Cl)ccc2n1 | - | VB59 | - | TZM-bl | 8.31 µM
CCC1(C)CCN(c2c(-c3ccc(OCCc4cn(C)nc4C)cn3)cnc(C)c2[C@H](OC(C)(C)C)C(=O)O)CC1 | - | NL4-3 | - | MT-2 | 4.4 µM
Cc1ccc(OCCN(C)c2ccc(-c3cnc(C)c([C@H](OC(C)(C)C)C(=O)O)c3N3CCC(C)(C)CC3)cn2)c(C)c1 | - | NL4-3 | - | MT-2 | 0.004 µM